# In patent US20200148741A1:
# T1: recombinant toxic shock syndrome toxin-1 (TSST-1), mature protein with N-terminal His6-tag (Staphylococcus aureus), P06886
# T1 chain: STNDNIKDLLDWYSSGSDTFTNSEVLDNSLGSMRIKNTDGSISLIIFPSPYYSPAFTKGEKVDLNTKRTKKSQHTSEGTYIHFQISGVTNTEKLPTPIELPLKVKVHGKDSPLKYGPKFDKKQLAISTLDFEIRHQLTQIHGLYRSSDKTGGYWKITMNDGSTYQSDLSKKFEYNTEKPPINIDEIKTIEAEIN
# Columns and labels:
# [1] = molecular target: T1, recombinant toxic shock syndrome …
# [2] = molecular target: recombinant streptococcal mitogenic exotoxin Z (SMEZ), mature protein with N-terminal His6-tag (Streptococcus pyogenes)
Binder,Kd [1] [µM],kon [1] [M⁻¹ s⁻¹],koff [2] [s⁻¹],kon [2] [M⁻¹ s⁻¹],Kd [2] [µM]
"EKFDSVHSKYM (modifications not checked) [pB2-4, immobilized for Surface Plasmon Resonance]",9.8,4080,0.00293,3020,–
"DSDSWTLR (modifications not checked) [pB2-6, immobilized for Surface Plasmon Resonance]",–,–,0.00286,1590,1.79
